Measurements reported in ChEMBL document CHEMBL1138147, “Respiratory syncytial virus fusion inhibitors. Part 3: Water-soluble benzimidazol-2-one derivatives with antiviral activity in vivo” (Bioorg Med Chem Lett, 2006).

Tests used:
[1] = Therapeutic index (CC50/EC50) for RSV infected Hep2 cells; assay type: cell-based; details: human, hep-2
HEp-2 = assay: Cytotoxicity against human Hep2 cells infected with RSV Long strain; assay type: functional
Mus musculus [2] = assay: Efficacy in BALB/c mouse measured as reduction in log TCID50 of RSV per gram of lung at 50 mg/kg, sc; details: route subcutaneous
Mus musculus [3] = assay: Efficacy in BALB/c mouse measured as reduction in log TCID50 of RSV per gram of lung at 50 mg/kg, po
Mus musculus [4] = assay: Efficacy in BALB/c mouse measured as reduction in log TCID50 of RSV per gram of lung at 15 mg/kg, po
Cotton rat = assay: Efficacy in cotton rat measured as reduction in log TCID50 of RSV per gram of lung at 0.5 mg/mL

Compound | Ratio CC50/EC50 [1] | CC50 (HEp-2) | Efficacy (Mus musculus [2]) | Efficacy (Mus musculus [3]) | Efficacy (Mus musculus [4]) | Efficacy (Cotton rat)
COC(=O)c1ccccc1Cn1c(=O)n(Cc2nc3ccccc3n2CCN(C)C)c2ccccc21 | 605 | 11.5 µM |  |  |  | 
COC(=O)c1ccc(Cn2c(=O)n(Cc3nc4ccccc4n3CCN(C)C)c3ccccc32)cc1 | 1220 | 28 µM | 2.59 | 3.47 |  | 
C=C(C)n1c(=O)n(Cc2nc3ccccc3n2CCN(C)C)c2ccccc21 | 900 | 9.9 µM |  |  |  | 
CN(C)CCn1c(Cn2c(=O)n(Cc3ccc(C(=O)N(C)C)cc3)c3ccccc32)nc2ccccc21 | 369 | 68.7 µM |  | 3.09 | 3.88 | 
CC(C)n1c(=O)n(Cc2nc3ccccc3n2CCN(C)C)c2ccccc21 | 678 | 9.5 µM |  |  |  | 
CN(C)CCn1c(Cn2c(=O)n(Cc3ccc(C(=O)O)cc3)c3ccccc32)nc2ccccc21 | > 765 | > 150 µM |  | 2.72 |  | 4.3
CN(C)CCn1c(Cn2c(O)nc3ccccc32)nc2ccccc21 | 4710 | 292 µM |  |  |  | 
CN(C)CCn1c(Cn2c(=O)n(Cc3ccccc3C(=O)O)c3ccccc32)nc2ccccc21 | 25 | 3.2 µM |  |  |  | 

This is a selection: effects in other tests are not listed, and their absence says nothing.
